What was measured:
[1] = test system: HBV; assay: HBV antiviral assay in confluent 2.2.15 cell cultures (HBV DNA, quantitative blot hybridization); type: cell-based, Hepatitis B Virus; conditions: for Selectivity Index Virion: CC50/EC90, extracellular virion DNA; for Selectivity Index RI: CC50/EC90, intracellular HBV RI
[2] = test system: HCV replicon; assay: Primary HCV replicon cell assay; type: cell-based, Hepatitis C Virus
Method: (§1) Antiviral activity of test compounds was assessed in a 3-day assay using the stably-expressing HCV replicon cell line, AVA5 (sub-genomic CON1, genotype 1b) (Blight et al., 2000) maintained as sub-confluent cultures on 96-well plates as previously described (Okuse et al., 2005). Antiviral activity was determined by blot hybridization analysis of intracellular HCV RNA (normalized to the level of cellular B-actin RNA in each culture sample) and cytotoxicity was assessed by neutral red dye uptake after 3 days of treatment. Additional studies were performed using Huh7 cells containing another HCV replicon, H/FL-Neo, a genotype 1a full length construct (Blight et al., 2003). For studies involving human serum, standard culture medium (which contains 10% fetal bovine serum) and assay conditions were maintained.
(§2) EC50, EC90 and CC50 values (±standard deviations [S.D.]) were calculated by linear regression analysis using data combined from all treated cultures (Korba and Gerin, 1992; Okuse et al., 2005). […] Selectivity index (S.I.) was calculated as CC50/EC90 for HBV assays and CC50/EC50 for HCV assays. EC90 values were used for calculation of the S.I. in HBV assays since at least a […] depression of HBV DNA levels is typically required to achieve statistical significance in this assay system (Korba and Gerin, 1992). […]

[3] = test system: HCV replicon, sub-genomic CON1, genotype 1b; assay: 3-day HCV replicon assay in AVA5 cells (intracellular HCV RNA, blot hybridization); type: cell-based, Hepatitis C Virus; conditions: Genotype 1b replicon, CC50/EC50
Method: as §1, §2

[4] = test system: HCV replicon H/FL-Neo, genotype 1a full length; assay: HCV replicon assay in Huh7 cells containing H/FL-Neo; type: cell-based, Hepatitis C Virus; conditions: Genotype 1a replicon, CC50/EC50
Method: as §1, §2

Structure (SMILES)	Selectivity Index Virion [1]	Selectivity Index RI [1]	other results
O=C(Nc1ncc(Cl)s1)c1ccccc1O [RM4848]	>58		
CS(=O)(=O)c1cnc(NC(=O)c2ccccc2O)s1 [Compound 6, 2-hydroxy-N-(5-(methylsulfonyl)thiazol-2-yl)benzamide]			SI [2]: 29.0
O=C(Nc1ncc(Br)s1)c1ccccc1O [RM4832]	>25	>12	Selectivity Index [3]: 20; Selectivity Index [4]: 31
CC(C)(C)C(=O)OCOP(=O)(COCCn1cnc2c(N)ncnc21)OCOC(=O)C(C)(C)C [ADV, adefovir dipovoxil]	>100		
Cc1ccc(C(=O)Nc2ncc(Cl)s2)c(O)c1 [RM4852]	>30	>16	
Cc1ccc(O)c(C(=O)Nc2ncc(Cl)s2)c1 [RM4850]	>120	>51	
CS(=O)(=O)c1cnc(NC(=O)c2ccccc2[O-])s1.[Na+] [Compound 75]			SI [2]: 25.0
